Article PMC6886523 (Nature chemical biology, 2017)

Test system: M. marinum MmTrpA^G65S
Conditions: MmTrpA^G65S strain, 5 d treatment

With `N#C[C@@H]1N[C@@H](CO)[C@H]1c1ccc(-c2ccccc2F)cc1` [BRD4592, (2R,3S,4R)-3-(2′-fluoro-[1,1′-biphenyl]-4-yl)-4-(hydroxymethyl)azetidine-2-carbonitrile] the “effect of treatment on resistant mutant in zebrafish” value was “not affected”.
